# Assay results from patent US20240043504A1 (published 2024).
# Where two headings read alike, the source gives them in different places.
# B1: mAb10996 (antibody, V domains shown)
# VH: EVQMVESGGGLVQPGGSLRLSCAASGFTVSSNYMTWVRQAPGKGLEWVSVIYSGGSTYYADSVKGRFTISRHNSKNTLYLQMNSLRAEDTAVYYCARDGVSYGMDVWGQGTTVTVSS
# VL: not shown
# B2: mAb10970 (antibody, V domains shown)
# VH: EVQLVESGGGLVQPGGSLRLSCAASGFTVSSNYMSWVRQAPGKGLEWVSVIYSGGSTYYADSVKGRFTISRDNSKNTLYLQMNRLRADDTAVYYCVRDPVGRYYYGMDVWGQGTTVTVSS
# VL: not shown
# B3: mAb10987 (antibody, V domains shown)
# VH: QVQLVESGGGVVQPGRSLRLSCAASGFTFSNYAMYWVRQAPGKGLEWVAVISYDGSNKYYADSVKGRFTISRDNSKNTLYLQMNSLRTEDTAVYYCASGSDYGDYLLVYWGQGTLVTVSS
# VL: QSALTQPASVSGSPGQSITISCTGTSSDVGGYNYVSWYQQHPGKAPKLMIYDVSKRPSGVSNRFSGSKSGNTASLTISGLQSEDEADYYCNSLTSISTWVFGGGTKLTVLG
# B4: mAb10933 (antibody, V domains shown)
# VH: QVQLVESGGGLVKPGGSLRLSCAASGFTFSDYYMSWIRQAPGKGLEWVSYITYSGSTIYYADSVKGRFTISRDNAKSSLYLQMNSLRAEDTAVYYCARDRGTTMVPFDYWGQGTLVTVSS
# VL: DIQMTQSPSSLSASVGDRVTITCQASQDITNYLNWYQQKPGKAPKLLIYAASNLETGVPSRFSGSGSGTDFTFTISGLQPEDIATYYCQQYDNLPLTFGGGTKVEIKR
# Assays:
# [1] = molecular target: T1, Human SARS Coronavirus Spike S1 Subunit Protein (His Tag) (Sino 40150-V08B1) (Human SARS Coronavirus, UniProt P59594 14-667); assay: Luminex bead binding, supernatant
# [2] = molecular target: T1, Human SARS Coronavirus Spike S1 Subunit …; assay: Luminex bead binding, supernatant; remark: listed apart in the source
# [3] = molecular target: Human SARS Coronavirus Spike Protein (Receptor Binding Domain, His Tag) (Sino 40150-V08B2) (Human SARS Coronavirus, UniProt P59594 306-527); assay: Luminex bead binding, supernatant
# [4] = molecular target: T2, MERS-CoV (NCoV/Novel coronavirus) Spike Protein fragment (RBD, aa 367-606, His Tag) (Sino 40071-V08B1) (MERS-CoV, UniProt K9N5Q8 367-606); assay: Luminex bead binding, supernatant
# T2 sequence: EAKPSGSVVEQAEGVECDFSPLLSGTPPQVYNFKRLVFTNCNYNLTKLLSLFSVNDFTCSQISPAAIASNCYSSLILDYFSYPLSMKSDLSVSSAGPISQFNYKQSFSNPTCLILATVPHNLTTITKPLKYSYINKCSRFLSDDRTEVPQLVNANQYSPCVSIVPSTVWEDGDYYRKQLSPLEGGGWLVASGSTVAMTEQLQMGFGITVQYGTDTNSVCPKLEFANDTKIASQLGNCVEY
# [5] = molecular target: Human SARS Coronavirus Spike Protein (Receptor Binding Domain, His Tag) (Sino 40150-V08B2) (Human SARS Coronavirus, UniProt P59594 306-527); assay: Luminex, supernatant
binder,measurement,setting,value
B1,Binding signal (MFI),[1],28 MFI
B2,Binding signal (MFI),[2],19 MFI
B3,Binding signal (MFI),[3],27 MFI
same,Binding signal (MFI),[4],28 MFI
B4,MFI,[5],31 MFI
